Reference: PMC12777753 (Emerging Microbes & Infections, 2025)
In brackets after ≈: the same amount, converted by molar mass. Counter-ions that a name gives are not always drawn.

Key:
[1] = biological target: NA of A/California/146/2024, NA-S439G (Influenza A virus, UniProt Q9Q0U7, S439G); conditions: virus with NA-S439G
[2] = tested on: A/California/135/2024, NA-S439G; conditions: A/California/135/2024 (genotype B3.13); M2 blocker range 3.9–1000 ng/mL
[3] = tested on: A/Washington/239/2024, NA-K432R; conditions: A/Washington/239/2024 (genotype D1.1); M2 blocker range 3.9–1000 ng/mL
[4] = tested on: A/Iowa/24/2024, M2-S31N; conditions: A/Iowa/24/2024, M2-S31N (genotype D1.1); M2 blocker range 3.9–1000 ng/mL
[5] = tested on: A/California/146/2024, NA-S439G; conditions: A/California/146/2024 (genotype B3.13); M2 blocker range 3.9–1000 ng/mL
[6] = tested on: A/Washington/240/2024, NA-K432R; conditions: A/Washington/240/2024 (genotype D1.1); M2 blocker range 3.9–1000 ng/mL

SMILES | interpretation of inhibition [1] | EC50 ± SD [2] | EC50 ± SD [3] | EC50 ± SD [4] | EC50 ± SD [5] | EC50 ± SD [6]
CC(=O)N[C@H]1[C@H]([C@H](O)[C@H](O)CO)OC(C(=O)O)=C[C@@H]1N=C(N)N | normal inhibition (normal inhibition if <10-fold) | – | – | – | – | –
NC12CC3CC(CC(C3)C1)C2 [Amantadine, amantadine hydrochloride] | – | 0.01827 ± 0.00109 µg/mL | 0.00925 ± 0.00247 µg/mL | >1 µg/mL | 0.02154 ± 0.00386 µg/mL | 0.01141 ± 0.003 µg/mL
CC(N)C12CC3CC(CC(C3)C1)C2 (centres unmarked) [Rimantadine, rimantadine] | – | 0.00483 ± 0.00015 µg/mL (≈ 0.0269 µM) | 0.00314 ± 0.00031 µg/mL (≈ 0.0175 µM) | >1 µg/mL | 0.00648 ± 0.00114 µg/mL (≈ 0.0361 µM) | 0.00346 ± 8e-05 µg/mL (≈ 0.0193 µM)
